## HIV-1 NL4-3 point mutations in Gag: replication capacity

Protein: Gag of HIV-1 NL4-3, numbered from its first residue. Gag is numbered as the whole polyprotein.
"Other frame" gives the effect on an overlapping gene as the source lists it; other overlaps (genes, RNA elements) are not shown.

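Seven fragments of pNL4-3 were mutated by error-prone PCR, and each virus pool was passaged in CEM T cells. Sequencing gave the RC index: frequency after two rounds over frequency in the input plasmid.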

A higher RC index is a better tolerated change; approximate classes are lethal up to 0.1, attenuated to 0.2, tolerated above. Each entry names the wild-type residue, its position and the residue put in its place. Since each clone held several changes (about five per kb), neutral changes can read low. An index over 1, which the authors read as above wild type, was rare (1.9% of all changes in the genome). Nucleotide positions follow pNL4-3.

| change | base | region | other frame | replication capacity index |
|---|---|---|---|---|
| Q65L | A983T | MA | none | 0.149 |
| Q69R | A995G | MA | none | 0.567 |
| A210S | G1417T | CA | none | 0.0527 |
| W414R | T2029A | NC p7 | none | 0.0396 |
| T251P | A1540C | CA | none | 0.0436 |
| E74D | A1011C | MA | none | 0.0918 |
| T97P | A1078C | MA | none | 0.0869 |
| K157R | A1259G | CA | none | 0.0344 |
| E260K | G1567A | CA | none | 3.33 |
| I169L | A1294T | CA | none | 0.0596 |
| A210P | G1417C | CA | none | 0.0729 |
| T70A | A997G | MA | none | 0.0598 |
| M200I | G1389C | CA | none | 0.185 |
| E106D | A1107T | MA | none | 0.0609 |
| R58G | A961G | MA | none | 0.354 |
| Y277H | T1618C | CA | none | 0.0862 |
| R229K | G1475A | CA | none | 0.781 |
| I147T | T1229C | CA | none | 0.129 |
| K391R | A1961G | NC p7 | none | 0.0366 |
| D183N | G1336A | CA | none | 0.306 |
| E99K | G1084A | MA | none | 0.622 |
| V143I | G1216A | CA | none | 0.463 |
| M228V | A1471G | CA | none | 0.0309 |
| I378L | A1921T | NC p7 | none | 0.0269 |
| A154T | G1249A | CA | none | 0.235 |
| G10V | G818T | MA | none | 0.101 |
| E177K | G1318A | CA | none | 0.155 |
| H252D | C1543G | CA | none | 0.0551 |
| C395R | T1972C | NC p7 | none | 0.0423 |
| S234R | T1491G | CA | none | 0.122 |
| E107V | A1109T | MA | none | 0.0423 |
| L215F | G1434C | CA | none | 0.0672 |
| I205T | T1403C | CA | none | 0.123 |
| D93H | G1066C | MA | none | 0.116 |
| K18N | A843T | MA | none | 0.0550 |
| I60T | T968C | MA | none | 0.0417 |
| M276I | G1617A | CA | none | 0.149 |
| I236T | T1496C | CA | none | 0.0993 |
| A209T | G1414A | CA | none | 0.127 |
| L184S | T1340C | CA | none | 0.0570 |
| S148A | T1231G | CA | none | 0.0488 |
| S278N | G1622A | CA | none | 0.0964 |
| K415E | A2032G | NC p7 | none | 0.0961 |
| N124Y | A1159T | MA | none | 0.0270 |
| A197G | C1379G | CA | none | 0.0309 |
| V94A | T1070C | MA | none | 0.110 |
| D96V | A1076T | MA | none | 0.0346 |
| G399E | G1985A | NC p7 | none | 0.271 |
| V159A | T1265C | CA | none | 0.0694 |
| A349T | G1834A | CA | none | 0.151 |
| G338E | G1802A | CA | none | 0.313 |
| Q108H | A1113C | MA | none | 0.0846 |
| G56D | G956A | MA | none | 0.0867 |
| Y86D | T1045G | MA | none | 0.157 |
| H358Y | C1861T | CA | none | 0.101 |
| A115S | G1132T | MA | none | 0.0563 |
| Q430H | G2079T | NC p7 | none | 0.0892 |
| A174S | G1309T | CA | none | 0.0509 |
| S234N | G1490A | CA | none | 0.219 |
| G24E | G860A | MA | none | 0.151 |
| G62A | G974C | MA | none | 0.148 |
| R232S | G1485T | CA | none | 0.246 |
| F172L | T1303C | CA | none | 0.0426 |
| R444K | G2120A | p1 / p6* | p6* silent | 0.230 |
| V390I | G1957A | NC p7 | none | 0.349 |
| L175F | A1314T | CA | none | 0.0406 |
| Q386K | C1945A | NC p7 | none | 0.459 |
| T375A | A1912G | p2 | none | 0.0372 |
| Q141H | A1212C | CA | none | 0.0523 |
| L175I | T1312A | CA | none | 0.0345 |
| T190I | C1358T | CA | none | 0.0736 |
| S241G | A1510G | CA | none | 0.0635 |
| Q65R | A983G | MA | none | 0.0690 |
| Q195K | C1372A | CA | none | 0.237 |
| N271K | T1602A | CA | none | 0.0906 |
| T122R | C1154G | MA | none | 0.0536 |
| A364T | G1879A | p2 | none | 0.111 |
| S281R | A1630C | CA | none | 0.229 |
| N137K | C1200A | CA | none | 0.157 |
| A146P | G1225C | CA | none | 0.139 |
| I256N | T1556A | CA | none | 0.0173 |
| S77P | T1018C | MA | none | 0.144 |
| E55D | A954C | MA | none | 0.0455 |
| V258A | T1562C | CA | none | 0.120 |
| T97S | C1079G | MA | none | 0.0761 |
| G10E | G818A | MA | none | 0.0604 |
| E245K | G1522A | CA | none | 0.174 |
| K157E | A1258G | CA | none | 0.0648 |
| P231Q | C1481A | CA | none | 0.405 |

Values reported by Al-Mawsawi et al. 2014 (doi:10.1186/s12977-014-0124-6).